In publication PMC9687439 (Biology, 2022):

Assays:
[1] = system: Xanthomonas albilineans (Xa), strain CFBP2523; format: cell-based; set-up: key: +++: Clear plaque formation; ++: turbid plaque formation; +: highly turbid plaque formation; -: no plaque formation
Xylella fastidiosa cells [2] = format: cell-based
Xylella fastidiosa cells [3] = format: cell-based; remark: listed apart in the source
Xylella fastidiosa cells [4] = format: cell-based; remark: listed apart in the source
[5] = system: Xylella fastidiosa subsp. pauca isolate De Donno in Nicotiana tabacum (var. Xanthi); conditions: in vivo
X. fastidiosa = conditions: cited from earlier work
[6] = system: Xylella fastidiosa subsp. pauca, strain De Donno; conditions: 12 μM

In the case of `CC[C@H](C)[C@H](NC(=O)CNC(=O)[C@H](C)NC(=O)[C@@H]1CCCN1C(=O)CNC(=O)[C@H](C)NC(=O)[C@H](CC(C)C)NC(=O)[C@H](Cc1ccc(O)cc1)NC(=O)[C@H](CCCCN)NC(=O)[C@H](CC(C)C)NC(=O)[C@@H](NC(=O)[C@H](CCCCN)NC(=O)[C@H](CCCCN)NC(=O)[C@H](Cc1ccccc1)NC(=O)[C@H](CC(C)C)NC(=O)[C@H](CCCCN)NC(=O)[C@@H](N)CCCCN)[C@@H](C)CC)C(=O)NCC(=O)N[C@@H](CCCCN)C(=O)N[C@@H](Cc1ccccc1)C(=O)N[C@@H](CC(C)C)C(=O)N[C@@H](Cc1c[nH]cn1)C(=O)N[C@@H](CO)C(=O)N[C@@H](C)C(=O)N[C@@H](CCCCN)C(=O)N[C@@H](CCCCN)C(=O)N[C@@H](CC(=O)O)C(=O)N[C@@H](CCC(=O)O)C(=O)N[C@@H](CC(C)C)C(=O)O` [KL29, BP178, reference compound], the “growth inhibition of Xanthomonas albilineans (plaque formation)” value [1] is reported as “+++”, the “reduction in Xf cell viability (v-qPCR)” value (Xylella fastidiosa cells [2]) is reported as “twofold reduction in cell viability” and the “lytic activity by fluorescence microscopy (live green / dead red)” value (Xylella fastidiosa cells [3]) is reported as “highest lytic activities”. For the same compound, the “morphological changes of Xf cells under TEM” value (Xylella fastidiosa cells [4]) was “pore and protrusion formation and condensed cytoplasmic outflow from the outer membrane”, the “Xf disease symptoms in Xf-infected tobacco plants” value [5] was “light leaf scorch symptoms” and the “MIC (μM) X. fastidiosa” value (X. fastidiosa) was 12.5 µM (≈ 40.5 µg/mL). For the same compound, the “inhibition / clearing zone on Xf (printed 'mean growth zones')” value [6] was 11.8 mm.

In brackets after ≈: the same amount, converted by molar mass.
